Biological target: TcdB^core (residues 1–1967 of TcdB1, VPI10463 strain, W102A/D286N/D288N/L543A) (Clostridioides difficile (VPI10463 …, UniProt P18177 1-1967, W102A | D286N | D288N | L543A))
Assay: cryo-EM structure

B1: CSPG4^mini (human CSPG4 residues 30–764: two laminin G motifs and first two CSPG repeats) (domain or fragment)
chain: ASFFGENHLEVPVATALTDIDLQLQFSTSQPEALLLLAAGPADHLLLQLYSGRLQVRLVLGQEELRLQTPAETLLSDSIPHTVVLTVVEGWATLSVDGFLNASSAVPGAPLEVPYGLFVGGTGTLGLPYLRGTSRPLRGCLHAATLNGRSLLRPLTPDVHEGCAEEFSASDDVALGFSGPHSLAAFPAWGTQDEGTLEFTLTTQSRQAPLAFQAGGRRGDFIYVDIFEGHLRAVVEKGQGTVLLHNSVPVADGQPHEVSVHINAHRLEISVDQYPTHTSNRGVLSYLEPRGSLLLGGLDAEASRHLQEHRLGLTPEATNASLLGCMEDLSVNGQRRGLREALLTRNMAAGCRLEEEEYEDDAYGHYEAFSTLAPEAWPAMELPEPCVPEPGLPPVFANFTQLLTISPLVVAEGGTAWLEWRHVQPTLDLMEAELRKSQVLFSVTRGARHGELELDIPGAQARKMFTLLDVVNRKARFIHDGSEDTSDQLVLEVSVTARVPMPSCLRRGQTYLLPIQVNPVNDPPHIIFPHGSLMVILEHTQKPLGPEVFQAYDPDSACEGLTFQVLGTSSGLPVERRDQPGEPATEFSCRELEAGSLVYVHRGGPAQDLTFRVSDGLQASPPATLKVVAIRPAIQIHRSTGLRLAQGSAMPILPANLSVETNAVGQDVSVLFRVTGALQFGELQKQGAGGVEGAEWWATQAFHQRDVEQGRVRYLSTDPQHHAYDTVENLALEVQ
notes: source: FreeStyle HEK 293 cells, secreted, purified (Ni-NTA, Superdex-200)
binding result: binds

Source: paper PMC8213806 (Nature Communications, 2021)
